Where no end group is shown, it is not given here.
Assay: Circular dichroism in membrane-mimicking environments
Type: physicochemical
Conditions: CD

FLPALAGIAGLLGKIF-NH2 [Temporin-SHe]
percentage of α-helical content (−∆ε222nm per residue × 10) (DMPC/DMPG (3:1) LUVs, peptide/lipid 1:100, phosphate buffer pH 7.3): 95.5% | 222/208 nm amplitude ratio (DMPC/DMPG LUVs): 0.98 | 222/208 nm amplitude ratio (SDS micelles): 0.74 | percentage of α-helical content (−∆ε222nm per residue × 10) (peptide 30 µM in 80 mM SDS micelles): 31%
